Test results taken from US20220249576A1 (priority 2021, published 2022).

System: A. flavus
Assay: Treatment with endocytosis inhibitors: effect on aflatoxin production
Type: cell-based, Aspergillus flavus
Conditions: filipin 3 μM, natamycin 6 μM; 40 h mycelia

CCCCC[C@@H](O)[C@H]1C(=O)O[C@H](C)[C@@H](O)/C=C/C=C/C=C/C=C/C=C(\C)[C@@H](O)C[C@H](O)C[C@H](O)C[C@H](O)C[C@H](O)C[C@H](O)C[C@@H]1O [filipin]
aflatoxin production compared to untreated control (A. flavus + the exemplary composition): increase aflatoxin production
